Test results taken from ChEMBL document CHEMBL1137295, “Discovery of HIV-1 protease inhibitors with picomolar affinities incorporating N-aryl-oxazolidinone-5-carboxamides as novel P2 ligands” (J Med Chem, 2006).
pKi: −log10 of the molar value.

Columns and labels:
[1] = molecular target: Human immunodeficiency virus type 1 protease (Human immunodeficiency virus 1, UniProt Q72874, Q7K); experiment: Inhibition of wild type HIV1 protease Q7K mutant
Summary of the method: (§1)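 FRET cleavage of Arg-Glu(EDANS)-[…]DABCYL)-Arg, 1 µM. Protease desalted into 20 mM sodium acetate pH 5, about 50 nM apparent by A280. Preincubated with inhibitor in DMSO 20-30 min at room temperature. Buffer 0.1 M NaOAc, 1 M NaCl, 1 mM EDTA, 1 mM DTT, 2% DMSO, 1 mg/mL BSA, pH 4.7. Read 340/490 nm, 30 °C, ~10 min. Ki by nonlinear fit of initial velocity versus inhibitor concentration.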

[2] = molecular target: Human immunodeficiency virus type 1 protease (Human immunodeficiency virus 1, UniProt Q72874, A71V/G73S/I84V/L10I/L63P/L90M); experiment: Inhibition of HIV1 protease L10I/L63P/A71V/G73S/I84V/L90M mutant; summary of the method: as §1
[3] = molecular target: Human immunodeficiency virus type 1 protease (Human immunodeficiency virus 1, UniProt Q72874, G48V/I54V/L10I/L63P/V82A); experiment: Inhibition of HIV1 protease L10I/G48V/I54V/L63P/V82A mutant; summary of the method: as §1
[4] = molecular target: Human immunodeficiency virus type 1 protease (Human immunodeficiency virus 1, UniProt Q72874, D30N/L63P/N88D); experiment: Inhibition of HIV1 protease D30N/L63P/N88D mutant; summary of the method: as §1

Cc1cccc(C)c1OCC(=O)N[C@@H](Cc1ccccc1)[C@@H](O)C[C@H](Cc1ccccc1)NC(=O)[C@H](C(C)C)N1CCCNC1=O [LOPINAVIR]
pKi [1]: 11.30
pKi [2]: 9.05
pKi [3]: 8.21
pKi [4]: 10.40
